From US8013006B2, “Methods for treating hepatitis C” (PTC Therapeutics, Inc., priority 2004, dated 2011)

Test system: HCV-PV chimera

`CCn1c(C#Cc2ccc(NC(=O)C3CCC3)cc2)c(C#N)c2ccc(OC)cc21` [Compound 153] was tested. Which IC50 did it give?
Its IC50 is > 2 µM.

With `CCOc1ccc2c(C#N)c(-c3ccc(N(C)S(C)(=O)=O)cc3)n(C)c2c1` as the compound, how does the IC50 read?
Its IC50 is 0.5 to 2 µM.

For `CCCNC(=O)Nc1cccc(-c2c(C#N)c3ccc(OC)cc3n2CC)c1` [Compound 396], which IC50 is on record?
Its IC50 is < 0.5 µM.

How did the IC50 turn out when `CCn1c(-c2ccc(NC(=O)C3CC3)cc2)c(C#N)c2ccc(OC)cc21` [Compound 81] was run?
The IC50 was < 0.5 µM.

With `CCCOC(=O)Nc1ccc(-c2c(C#N)c3ccc(OC(F)F)cc3n2CC2CC2)cc1` as the compound, how does the IC50 read?
Its IC50 is < 0.5 µM.

Which IC50 does the source give for `CCCn1c(-c2ccc(NS(=O)(=O)CC)cc2)c(C#N)c2ccc(OC)cc21` [Compound 85] here?
The IC50 was < 0.5 µM.

For `CCn1c(-c2ccc(NC(=O)OC)cc2)c(C#N)c2ccc(OCCF)cc21` [Compound 545], which IC50 is on record?
The IC50 was 0.5 to 2 µM.

With `CCNC(=O)Nc1cccc(-c2c(C#N)c3ccc(OC)cc3n2CC)c1` [Compound 401] as the compound, how does the IC50 read?
Its IC50 is < 0.5 µM.

With `CCCS(=O)(=O)Nc1ccc(-c2c(C#N)c3ccc(OC)cc3n2CC)cc1` [Compound 251] as the compound, how does the IC50 read?
Its IC50 is < 0.5 µM.

Which IC50 does the source give for `CCn1c(-c2ccc(NS(=O)(=O)C(C)C)cc2)c(C#N)c2ccc(OC)cc21` [Compound 88] here?
Its IC50 is < 0.5 µM.

Which IC50 does the source give for `CCn1c(C#Cc2ccc(NC(=O)COC)cc2)c(C#N)c2ccc(OC)cc21` [Compound 139] here?
Its IC50 is < 0.5 µM.

Which IC50 does the source give for `CCn1c(-c2ccc(NC(=O)COC)cc2)c(C#N)c2ccc(OC(C)C)cc21` here?
Its IC50 is < 0.5 µM.

How did the IC50 turn out when `CCC(=O)Nc1ccc(C#Cc2c(C#N)c3ccc(OC)cc3n2CC)cc1` [Compound 82] was run?
Its IC50 is < 0.5 µM.

How did the IC50 turn out when `CCn1c(-c2ccc(NC(=O)C3CC3)cc2)c(C#N)c2ccc(OCCF)cc21` [Compound 544] was run?
Its IC50 is < 0.5 µM.

With `CCn1c(-c2cccc(NC(=O)NC(C)C)c2)c(C#N)c2ccc(OC)cc21` [Compound 397] as the compound, how does the IC50 read?
The IC50 was < 0.5 µM.
